Results reported in US20200262877A1, “ION CHANNEL-BINDING PEPTIDES AND METHODS OF USE THEREOF” (priority 2017, published 2020).

T1: hERG, Q12809
T1 chain: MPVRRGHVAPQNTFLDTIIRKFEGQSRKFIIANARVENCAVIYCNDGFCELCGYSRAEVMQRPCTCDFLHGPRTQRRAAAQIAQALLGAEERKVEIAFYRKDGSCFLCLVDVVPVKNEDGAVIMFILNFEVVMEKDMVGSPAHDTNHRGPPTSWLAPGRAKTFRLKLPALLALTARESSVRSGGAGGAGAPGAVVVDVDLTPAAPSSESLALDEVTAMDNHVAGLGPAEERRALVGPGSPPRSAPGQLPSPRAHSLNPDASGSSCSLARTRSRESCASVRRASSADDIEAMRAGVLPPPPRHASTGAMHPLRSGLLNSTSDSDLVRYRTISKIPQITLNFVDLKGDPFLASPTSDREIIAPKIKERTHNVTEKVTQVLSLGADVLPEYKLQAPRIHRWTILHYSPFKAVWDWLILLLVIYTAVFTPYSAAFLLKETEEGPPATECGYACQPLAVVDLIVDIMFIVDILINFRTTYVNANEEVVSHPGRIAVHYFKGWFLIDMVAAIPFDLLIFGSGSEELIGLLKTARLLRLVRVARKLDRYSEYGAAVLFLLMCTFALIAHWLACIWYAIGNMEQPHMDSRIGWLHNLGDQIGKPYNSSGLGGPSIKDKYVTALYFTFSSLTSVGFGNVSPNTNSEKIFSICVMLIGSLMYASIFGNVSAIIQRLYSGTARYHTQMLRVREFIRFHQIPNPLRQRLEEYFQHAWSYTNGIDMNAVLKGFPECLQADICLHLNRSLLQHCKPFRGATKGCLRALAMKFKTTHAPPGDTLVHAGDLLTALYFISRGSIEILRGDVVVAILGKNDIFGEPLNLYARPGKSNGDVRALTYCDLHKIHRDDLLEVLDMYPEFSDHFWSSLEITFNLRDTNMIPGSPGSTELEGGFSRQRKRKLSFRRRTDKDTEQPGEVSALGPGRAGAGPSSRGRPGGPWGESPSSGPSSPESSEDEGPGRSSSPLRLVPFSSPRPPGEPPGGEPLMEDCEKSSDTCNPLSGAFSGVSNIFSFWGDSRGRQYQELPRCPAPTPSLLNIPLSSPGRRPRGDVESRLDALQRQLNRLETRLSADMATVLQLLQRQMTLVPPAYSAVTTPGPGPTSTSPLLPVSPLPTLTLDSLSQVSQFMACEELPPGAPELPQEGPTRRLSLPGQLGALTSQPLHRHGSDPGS

B1: SEQ ID NO: 38 (peptide)
peptide: GSGIGDPVTCLKSGAICHPVFCPRRYKQIGTCGLPGTKCCKKP
modifications: not checked
B2: SEQ ID NO: 17 (peptide)
peptide: GSRPTDIKCSASYQCFPVCKSRFGKTNGRCVNGLCDCF
modifications: not checked

target: NR2A; test: cell-based or functional assay

Binder	% activity at 0.2 µM	% activity at 20 µM
B1	100%	90%

target: TRPA1; test: cell-based or functional assay

Binder	% activity at 0.2 µM	% activity at 20 µM
B2	176%	129%
B1	138%	108%

target: Kv1.1; test: cell-based or functional assay

Binder	% activity at 0.2 µM	% activity at 20 µM
B1	97%	73%

target: Cav2.1; test: cell-based or functional assay

Binder	% activity at 20 µM	% activity at 0.2 µM
B2	90%	–
B1	93%	95%

Target: T1, hERG, Q12809
Test: cell-based or functional assay

Binder	% activity at 20 µM	% activity at 0.2 µM
B2	8%	–
B1	71%	86%

target: Kv1.3; test: cell-based or functional assay

Binder	% activity at 20 µM	% activity at 0.2 µM
B2	6%	–
B1	31%	101%

target: TRPV1; test: cell-based or functional assay

Binder	% activity at 0.2 µM	% activity at 20 µM
B1	98%	76%

target: Kir2.1; test: cell-based or functional assay

Binder	% activity at 0.2 µM	% activity at 20 µM
B1	88%	126%

target: α4β2 nicotinic receptor; test: cell-based or functional assay

Binder	% activity at 20 µM	% activity at 0.2 µM
B2	78%	–
B1	88%	107%

target: 5HT3a; test: cell-based or functional assay

Binder	% activity at 0.2 µM	% activity at 20 µM
B1	97%	98%

target: Kv2.1; test: cell-based or functional assay

Binder	% activity at 0.2 µM	% activity at 20 µM
B1	100%	125%

target: Kv1.2; test: cell-based or functional assay

Binder	% activity at 0.2 µM	% activity at 20 µM
B1	100%	84%

target: Nav1.7; test: cell-based or functional assay

Binder	% activity at 0.2 µM (TP1)	% activity at 0.2 µM (TP2)
B2	66%	61%

target: α3β4 nicotinic receptor; test: cell-based or functional assay

Binder	% activity at 0.2 µM	% activity at 20 µM
B1	99%	92%

target: Cav2.2; test: cell-based or functional assay

Binder	% activity at 0.2 µM	% activity at 20 µM
B2	117%	100%
B1	117%	89%

target: GABA; test: cell-based or functional assay

Binder	% activity at 0.2 µM	% activity at 20 µM
B1	121%	112%

target: NR2B; test: cell-based or functional assay

Binder	% activity at 0.2 µM	% activity at 20 µM
B2	90%	–
B1	83%	88%
